Measured values from several laboratories, pooled; numbers as filed in NIAID ChemDB.

Common to all: tests on isolated targets

Lines come from different laboratories, so protocols vary. ICn: concentration for n% inhibition. Blank or dashed fields: not listed here. Percent inhibition refers to the dose given; in toxicity tests it is the harm to the cells. a–b is a range or a potency band.

compound	measure	protein	tested at	species	value
CCOC(=O)C1=CN(N2CCN(c3nc(Nc4ccc5[nH]ncc5c4)nc(OC)n3)CC2)C(SC)N=C1	inhibition	DNA polymerase	1 µg/mL	Hepatitis B virus	39%
CC[C@@H](C=O)NC(=O)[C@@H]1C[C@@H](OCc2ccccc2)CN1C(=O)[C@@H](NC(=O)Cc1csc(N)n1)C(C)C	Ki	NS3 protease	-	Hepatitis C virus	1–100 µM
Cc1ccccc1CNC(=O)Nc1ccccc1-c1nc(C(=O)O)c(O)c(=O)[nH]1	IC50	HCV polymerase	-	Hepatitis C virus	<100 µM
O=C(O)c1cc2nc(-c3ccc(Cl)cc3)cc(-c3ccccc3)n2n1	IC50	RNA-dependent RNA polymerase	-	Hepatitis C virus	>10 µM
COc1nc(Nc2ccc3[nH]ncc3c2)nc(N2CCOCC2)n1	IC50	DNA polymerase	-	Hepatitis B virus	0.1 µg/mL
CC[C@@H](C=O)NC(=O)[C@@H]1C[C@@H](OC(=O)Nc2cc(Cl)nc(Cl)c2)CN1C(=O)[C@@H](NC(=O)[C@@H](NC(=O)c1cnccn1)C(C)C)C(C)C	Ki	NS3 protease	-	Hepatitis C virus	1–100 µM
COc1ccc(-c2ccc(C#N)cc2)c(-c2ccc3cc(-c4nc5cc(C(=O)O)ccc5n4C4CCCCC4)ccc3n2)c1	inhibition	NS5B polymerase	100 µM	Hepatitis C virus	102.6%
CNC(=O)c1c(-c2ccc(F)cc2)oc2cc(N3CCCC3)c(OC(C)C)cc12	IC50	Nonstructural protein 5B	-	Hepatitis C virus	≤0.5 µM
O=C1NC(=O)/C(=C/c2cnn3c(C4CCCCC4)c(-c4ccc(OCc5ccccc5)cc4)cnc23)S1	IC50	RNA-dependent RNA polymerase	-	Hepatitis C virus	>10 µM
O=C(O)c1ccc2c(c1)nc(-c1ccc3ncc(-c4ccccc4)nc3c1)n2C1CCCCC1	inhibition	NS5B polymerase	33 µM	Hepatitis C virus	84.42%
CC[C@H](NC(=O)[C@@H]1C[C@@H](OCc2ccccc2)CN1C(=O)[C@@H](NC(=O)[C@@H](NC(=O)C(CC(=O)O)NC(=O)[C@H](CCC(=O)O)NC(C)=O)C(C)C)C(C)C)C(=O)C(=O)NCCc1ccccc1	Ki	NS3 protease	-	Hepatitis C virus	<1 µM
O=C(N[C@@H](Cc1ccc(O)cc1)C(=O)O)c1cc2nc(-c3cccc(F)c3)c(C3CCCCC3)c(=O)n2[nH]1	IC50	RNA-dependent RNA polymerase	-	Hepatitis C virus	<1 µM
C=CCN(c1cc2oc(-c3ccc(F)cc3)c(C(=O)NC)c2cc1OC(C)C)S(C)(=O)=O	IC50	Nonstructural protein 5B	-	Hepatitis C virus	≤0.5 µM
Cc1ccc(C(=O)N(c2cc(-c3ccccc3)sc2C(=O)O)C(C)C)c(/C=N/O)c1	IC50	NS3 ATPase	-	Hepatitis C virus	5–20 µM
O=C(O)CC1(CC(=O)Nc2ccsc2-c2nc(C(=O)O)c(O)c(=O)[nH]2)CCCC1	IC50	HCV polymerase	-	Hepatitis C virus	<25 µM
CNC(=O)c1c(-c2ccc(F)cc2)oc2cc(N3CCOCC3)c(OCc3nccs3)cc12	IC50	Nonstructural protein 5B	-	Hepatitis C virus	≤0.5 µM
O=C(O)c1cnn2c(C3CCCCC3)c(-c3cccc(Oc4cccc(OC(F)(F)F)c4)c3)cnc12	IC50	RNA-dependent RNA polymerase	-	Hepatitis C virus	>10 µM
Cc1cc(-c2ccccc2)nc2ccc(-c3nc4cc(C(=O)O)ccc4n3C3CCCCC3)cc12	inhibition	NS5B polymerase	100 µM	Hepatitis C virus	100%
Cc1ccccc1S(=O)(=O)Nc1cc(-c2ccccn2)sc1C(=O)O	IC50	NS3 ATPase	-	Hepatitis C virus	<5 µM
O=C(Nc1cccc(F)c1)Nc1cscc1-c1nc(C(=O)O)c(O)c(=O)[nH]1	IC50	HCV polymerase	-	Hepatitis C virus	<25 µM
CC[C@@H](C=O)NC(=O)[C@@H]1C[C@@H](OCc2ccccc2)CN1C(=O)[C@@H](NC(=O)c1cc2ccccc2[nH]1)C(C)C	Ki	NS3 protease	-	Hepatitis C virus	1–100 µM
C=CCN(C(=O)Cc1c(Cl)cccc1Cl)c1cc(-c2ccccc2)sc1C(=O)O	IC50	NS3 ATPase	-	Hepatitis C virus	5–20 µM
Cc1ccccc1COC(=O)Nc1ccsc1-c1nc(C(=O)O)c(O)c(=O)[nH]1	IC50	HCV polymerase	-	Hepatitis C virus	<25 µM
CCOc1ccc([N+](=O)[O-])cc1-c1ccc2cc(-c3nc4cc(C(=O)O)ccc4n3C3CCCCC3)ccc2n1	inhibition	NS5B polymerase	33 µM	Hepatitis C virus	102%
CS(=O)(=O)c1cccc(Oc2ccc(-c3cnc4c(-c5nn[nH]n5)cnn4c3C3CCCCC3)cc2)c1	IC50	RNA-dependent RNA polymerase	-	Hepatitis C virus	<1 µM
NC(C(=O)Nc1ccsc1-c1nc(C(=O)O)c(O)c(=O)[nH]1)c1cc(F)ccc1F	IC50	HCV polymerase	-	Hepatitis C virus	<25 µM
COc1nc(NCCc2ccccn2)nc(Nc2ccc3[nH]ncc3c2)n1	inhibition	DNA polymerase	1 µg/mL	Hepatitis B virus	65%
O=C(NCc1cccc(Cl)c1)Nc1cccc(-c2nc(C(=O)O)c(O)c(=O)[nH]2)c1	IC50	HCV polymerase	-	Hepatitis C virus	<100 µM
NC(=O)[C@H](Cc1ccccc1)NC(=O)c1ccc2cc(-c3nc4cc(C(=O)O)ccc4n3C3CCCCC3)ccc2n1	inhibition	NS5B polymerase	100 µM	Hepatitis C virus	98.58%
N#CNC(=O)c1cnn2c(C3CCCCC3)c(-c3ccc(OCc4ccccc4)cc3)cnc12	IC50	RNA-dependent RNA polymerase	-	Hepatitis C virus	1–10 µM
COc1nc(Nc2ccc3[nH]ncc3c2)nc(NC2CC2)n1	inhibition	DNA polymerase	0.01 µg/mL	Hepatitis B virus	12%
CC(C)N(C(=O)C1CC[C@@H](C)C[C@H]1O)c1cc(-c2ccccc2)sc1C(=O)O	IC50	NS3 ATPase	-	Hepatitis C virus	<5 µM
O=C(O)c1ccc2c(c1)nc(-c1ccc3nc(-c4ccc(O)cc4O)ccc3c1)n2C1CCCCC1	inhibition	NS5B polymerase	33 µM	Hepatitis C virus	98.6%
O=C(Nc1cccc(C(F)(F)F)c1)Nc1ccccc1-c1nc(C(=O)O)c(O)c(=O)[nH]1	IC50	HCV polymerase	-	Hepatitis C virus	<100 µM
CC(C)CC(=O)N(C)c1cc(-c2ccccc2)sc1C(=O)O	IC50	NS3 ATPase	-	Hepatitis C virus	<5 µM
CC(C)NC1=NC(NC(C)C)N(CN)C(Nc2ccc3cn[nH]c3c2)=N1	inhibition	Nonstructural protein 5B	1 µg/mL	Hepatitis C virus	56%
Cc1nc(N)sc1-c1ccc2cc(-c3nc4cc(C(=O)O)ccc4n3C3CCCCC3)ccc2n1	inhibition	NS5B polymerase	33 µM	Hepatitis C virus	94.13%
COc1nc(NCCO)nc(Nc2ccc3cn[nH]c3c2)n1	IC50	DNA polymerase	-	Hepatitis B virus	0.1–1 µg/mL
CCOC(=O)c1ccc(NC(=O)COc2cc3c(C(=O)NC)c(-c4ccc(F)cc4)oc3cc2N(C)S(C)(=O)=O)cc1	IC50	Nonstructural protein 5B	-	Hepatitis C virus	≤0.5 µM
COc1nc(Nc2ccc3[nH]ncc3c2)nc(N2CCCC2)n1	inhibition	DNA polymerase	0.01 µg/mL	Hepatitis B virus	10%
O=C(O)c1ccc2c(c1)nc(-c1ccc3nc(-c4cccc(Br)c4)ccc3c1)n2C1CCCCC1	inhibition	NS5B polymerase	33 µM	Hepatitis C virus	100%

A second listing of 5 rows from above:

compound,measure,protein,tested at,species,value
C=CCN(c1cc2oc(-c3ccc(F)cc3)c(C(=O)NC)c2cc1OC(C)C)S(C)(=O)=O,IC50,Nonstructural protein 5B,-,Hepatitis C virus,≤0.5 µM
O=C(Nc1cccc(C(F)(F)F)c1)Nc1ccccc1-c1nc(C(=O)O)c(O)c(=O)[nH]1,IC50,HCV polymerase,-,Hepatitis C virus,<100 µM
COc1nc(NCCc2ccccn2)nc(Nc2ccc3[nH]ncc3c2)n1,inhibition,DNA polymerase,1 µg/mL,Hepatitis B virus,65%
O=C1NC(=O)/C(=C/c2cnn3c(C4CCCCC4)c(-c4ccc(OCc5ccccc5)cc4)cnc23)S1,IC50,RNA-dependent RNA polymerase,-,Hepatitis C virus,>10 µM
NC(C(=O)Nc1ccsc1-c1nc(C(=O)O)c(O)c(=O)[nH]1)c1cc(F)ccc1F,IC50,HCV polymerase,-,Hepatitis C virus,<25 µM